Laboratory results as given in publication PMC3542062, “A phenyl-thiadiazolylidene-amine derivative ejects zinc from retroviral nucleocapsid zinc fingers and inactivates HIV virions” (Retrovirology, 2012).

How the values were obtained:
[1] = test system: NCp7(11-55); assay: Zinc ejection monitored by Trp37 intrinsic fluorescence; format: biochemical, HIV-1; conditions: 10 μM compound, 100 μM zinc, after 30 minutes
Protocol: Subsequently, the zinc ejection from NCp7(11-55) by WDO-217 exposure was investigated in function of time (Figure 1B and C). […] Ejection of 50% of the zinc is observed in less than 5 minutes (Figure 4C).
Figure 4 Zinc ejection from the NCp7(11-55) zinc fingers by WDO-217. (A) Emission spectra of NCp7(11-55) (1 μM) recorded in the absence (disks) and the presence of 10 μM WDO-217 (star). As a reference, NCp7(11-55) was treated with 1 mM EDTA, a well known zinc chelator (triangle). Pre-incubation time of WDO-217 with NCp7(11-55) was 1 hour. (B) Time-dependent zinc ejection from NCp7(11-55). The emission spectra of NCp7(11-55) (1 μM) were recorded in the absence (disks) and presence of WDO-217 (10 μM) at the different time points as indicated. […] The data points (stars) corresponded to the fluorescence intensity at the maximum emission wavelength from panel B. Solid line represents a double-exponential fit to the data. […] Then, 10 μM of WDO-217 was added, and the spectrum was recorded after 30 minutes of incubation (square). […]
The NC(11-55) peptide was synthesized by solid phase peptide synthesis on a 433A synthesizer (ABI, Foster City, CA), as previously described. The lyophilized peptide was dissolved in water, and its concentration was determined using an extinction coefficient of 5,700 M^–1 x cm^–1 at 280 nm. […]
Absorption spectra were recorded on a Cary 400 spectrophotometer. […]

[2] = test system: MT-4 cells; assay: Cytotoxicity in mock-infected MT-4 cells (MTT); format: cell-based

SMILES: Cn1sc(=N)nc1-c1ccccc1 [WDO-217, 2-methyl-3-phenyl-2H-[1,2,4]thiadiazol-5-ylideneamine]
- zinc ejection in presence of 100-fold excess of zinc sulphate [1]: nearly complete ejection
- average selective index [2]: approximately 20
